For one substance, Kd results are on record in paper PMC7864994, “Structure and binding properties of Pangolin-CoV spike glycoprotein inform the evolution of SARS-CoV-2” (2021).

Where “and” joins values, the source holds several entries; their conditions need not be identical. Equal entries are not always repeated.

This experiment deals with Pangolin-CoV S ectodomain (Pangolin coronavirus MP789 isolate spike) (Pangolin coronavirus MP789 isolate (from Malayan pangolin, Manis javanica)). The experiment in a line: BLI. (BLI is a label-free optical method that tracks binding on a fibre tip over time.)

With “pangolin ACE2 ectodomain (Malayan pangolin, Manis javanica) (receptor)”, the Kd is 850 nM and 663 nM.

By Kd is commonly meant the constant that tells how readily two partners part at equilibrium.
